Results of unrelated studies side by side (data: NIAID ChemDB).

Common to all: whole-cell or culture tests; species: Mycobacterium tuberculosis

ECn is the concentration giving n% inhibition of infection, replication or growth. Inhibition is in % at the dose shown (toxicity tests: loss of growth or viability). Two numbers with a dash give a range or band. MIC50, MIC90 and the like: level of inhibition, or share of isolates inhibited. MIC bound: limit read from a one-dose screen. Rows are shuffled and stem from different studies. An empty or dashed field is not shown.

structure | conditions | endpoint | method | dose | strain | value
CC[C@@H](CO)NCCN[C@@H](CC)CO |  | MIC | fluorescence |  | H37Rv | 3.13 µM
O=C1O[C@H]2C(O)[C@@H](CO)O[C@H]2n2c1cc(=O)[nH]c2=O |  | MIC bound | BACTEC |  | H37Rv | >12.5 µg/mL
C[Se]C1C(=O)N(Cc2ccccc2)C([Se]C)C(=O)N1Cc1ccccc1 |  | EC50 | turbidity |  |  | 16.2 µM
c1ccc(P(c2ccccc2)c2ccccn2)cc1 | 7 d | MIC99 | broth dilution / visual reading |  | H37Rv | 160 µM
CC(=O)OC1OC(=O)C=C1[C@H]1CC=C(CC/C=C(\C)CCC2=C(C)CCCC2(C)C)C(O)O1 |  | MIC |  |  |  | 7 µg/mL
COC(=O)N[C@@H]1[C@H](C)O[C@@H](OC2C/C=C(\C)[C@H]3C=C[C@H]4[C@H](OC5C[C@@H](OC6C[C@@H](O)[C@@H](OC7C[C@@H](O)[C@@H](OC)[C@H](C)O7)[C@H](C)O6)[C@@H](O)[C@H](C)O5)[C@H](C)C[C@@H](C)[C@@H]4[C@@]3(C)/C(O)=C3/C(=O)OC4(C[C@H](C)C(CO)=C[C@H]4/C=C\2C)C3=O)C[C@@]1(C)N |  | MIC90 | MTT |  | H37Ra | 1.3 µM
CN1CCN(c2nc(-c3ccc(N(C)C)cc3)c(C#N)c(=O)[nH]2)CC1 |  | MIC |  |  | H37Ra | >50 µg/mL
N/C(=N\N=C\c1cccc(F)c1)c1ccncc1 |  | MIC |  |  | 1054 | 64 µg/mL
N#Cc1c(-c2cccnc2)nc(NCCN2CCOCC2)[nH]c1=O |  | MIC |  |  | H37Ra | 25–50 µg/mL
CC1=C(C(=O)Nc2ccc(C)cc2C)C(c2ccccc2)C(C(=O)Nc2ccc(C)cc2C)=C(C)N1 |  | EC50 |  |  | H37Rv | >2.5 µg/mL
N#Cc1c(-c2ccc(F)cc2)nc(NC2CCCCC2)[nH]c1=O |  | MIC |  |  | H37Ra | >50 µg/mL
CO[C@H]1/C=C/O[C@@]2(C)Oc3c(C)c(O)c4c(O)c(c(/C=N/N5CCN(C)CC5)c(O)c4c3C2=O)NC(=O)/C(C)=C\C=C\[C@H](C)[C@H](O)[C@@H](C)[C@@H](O)[C@@H](C)[C@H](OC(C)=O)[C@@H]1C |  | MIC90 |  |  | 11 isolates (MDR) | >32 µg/mL
CCN(CC)CCNc1cc2ccccc2c2sc3ccccc3c(=O)c12 |  | MIC |  |  | H37Rv | 3.13 µg/mL
N#Cc1ccc(/C=N/N=C(\N)c2ccncc2)cc1 |  | MIC |  |  | 1481 | >256 µg/mL
NNC(=O)c1ccncc1 |  | MIC50 |  |  | 11 isolates (MDR) | 4 µg/mL
N#Cc1c(-c2ccc(F)cc2)nc(Nc2ccc(F)cc2)[nH]c1=O |  | MIC |  |  | H37Ra | >50 µg/mL
CCOc1ccccc1-c1nc2c(s1)C(=O)c1ccccc1C2=O |  | MIC bound | BACTEC |  | H37Rv | ≤12.5 µg/mL
NNC(=O)c1cccs1 |  | MIC99.9 | visual reading |  | H37Rv | 10 µg/mL
COC(=O)N[C@@H]1[C@H](C)O[C@@H](OC2C/C=C(\C)[C@H]3C=C[C@H]4[C@H](OC5C[C@@H](OC6C[C@@H](O)[C@@H](OC7C[C@@H](O)[C@@H](OC)[C@H](C)O7)[C@H](C)O6)[C@@H](O)[C@H](C)O5)[C@H](C)C[C@@H](C)[C@@H]4[C@@]3(C)/C(O)=C3/C(=O)OC4(C[C@H](C)C(CO)=C[C@H]4/C=C\2C)C3=O)C[C@@]1(C)[N+](=O)[O-] |  | MIC90 | MTT |  | H37Ra | 7.8 µM
O=C1CCCCCCCCCCCCCCCO1 |  | MIC |  |  | PAS-R | >12.8 µg/mL
CC(C)=C[C@@H]1C[C@H](C)[C@H]2CC[C@H](C)c3c2c1c(C)c1ncoc31 |  | MIC |  |  |  | 12.5 µg/mL
COc1ccc(C(Cn2ccnc2)Sc2ccc(Cl)c(Cl)c2)cc1 |  | MIC bound | resazurin |  | H37Rv | <6.25 µg/mL
Cc1ccc(C)c(/C=N/N=C(\N)c2ccncc2)c1 |  | MIC |  |  | 1481 | 256 µg/mL
O=c1ccc2c(-c3ccccc3)cc(N3CCN(c4ccccc4)CC3)nc2[nH]1 |  | MIC |  |  | H37Rv | >6.25 µg/mL
Cc1onc(-c2ccccc2Cl)c1C(=O)N[C@@H]1C(=O)N2[C@@H]1SC(C)(C)[C@@H]2C(=O)O | 21 d | inhibition | colony count | 5 µg/mL | Gordon | 100%
CN(C)c1ccc(-c2nc(N3CCOCC3)[nH]c(=O)c2C#N)cc1 |  | MIC |  |  | H37Ra | >50 µg/mL
Nc1cc2cc(-c3ccccc3)c(N3CCCCC3)nc2nc1N1CCCCC1 |  | inhibition |  | 6.25 µg/mL | H37Rv | 71%
O=C1C(=O)N(C2CCCCC2)C(=S)N1C1CCCCC1 |  | MIC bound | BACTEC |  | H37Rv | >12.5 µg/mL
CC1N=C(N)NC(c2ccco2)=C1C(=O)Nc1ccc(S(=O)(=O)c2ccc(NC(=O)C3=C(c4ccco4)NC(N)=NC3C)cc2)cc1 |  | MIC |  |  | INH resistant | 5.38 µM
N#Cc1c(-c2ccc(F)cc2)nc(NC2CCCCCC2)[nH]c1=O |  | MIC |  |  | H37Ra | >50 µg/mL
C[C@@H]1CN(c2c(F)c(N)c3c(=O)c(C(=O)O)cn(C4CC4)c3c2F)C[C@H](C)N1 |  | MIC50 |  |  |  | 0.2 µg/mL
C=Cc1c(C)c(O)cc2c1-c1ccc(O)c(C)c1CC2 |  | inhibition | BACTEC | 12.5 µg/mL | H37Rv | 70%
NC(=O)c1cnc(C(=O)c2ccccc2)cn1 |  | inhibition | resazurin | 6.25 µg/mL | H37Rv | 8%
COc1cc(N=Nc2cc(C)c(NC(=O)c3ccc(N)cc3)cc2C)c(OC)cc1N=Nc1ccc2cc(S(=O)(=O)O)ccc2c1 |  | MIC | BACTEC |  | H37Rv | ≥12.5 µg/mL
COC(=O)c1cnc(C(=O)c2ccccc2)cn1 |  | EC50 | resazurin |  | H37Rv | >6.25 µg/mL
COc1ccc(Nc2nc3ccc(N)cc3nc2C(N)=O)cc1OC |  | EC50 |  |  | H37Rv | 4.8 µM
NC1=NN(c2ccccc2)C(=O)C1C(=O)C(=O)Nc1ccc(Cl)c(Cl)c1 |  | inhibition | resazurin | 6.25 µg/mL | H37Rv | -33%
COc1cc2c(cc1O)CCN[C@]21CS(=O)[C@@H]2c3c(C(C)=O)c(C)c4c(c3C(COC1=O)N1C2[C@H]2c3c(cc(O)c(OC)c3O)C[C@@H]([C@@H]1C#N)N2C)OCC4 |  | MIC |  |  |  | 2 µg/mL
COc1ccc(C2C(C(=O)Nc3cc(C)ccc3C)=C(C)NC(C)=C2C(=O)Nc2cc(C)ccc2C)cc1 |  | inhibition |  | 2.5 µg/mL | H37Rv | 41%
COc1ccc2cc(-c3ccccc3)c(N3CCNCC3)nc2n1 |  | inhibition |  | 6.25 µg/mL | H37Rv | 67%
CN1NC(=O)SC(=O)c2ccccc2C1=O |  | inhibition | BACTEC | 12.5 µg/mL | H37Rv | 8%
Oc1cc(Cl)ccc1Oc1ccc(Cl)cc1Cl |  | MIC |  |  | M306 | 25 µM
Nc1ccc2c(-c3ccccc3)cc(N3CCOCC3)nc2n1 |  | MIC |  |  | H37Rv | >6.25 µg/mL
CC(=O)CCCCn1c(=O)c2c(ncn2C)n(C)c1=O |  | inhibition | BACTEC | 12.5 µg/mL | H37Rv | 0%
COc1ccc(-c2nc(N3CCc4ccccc4C3)[nH]c(=O)c2C#N)cc1 |  | MIC |  |  | H37Ra | >50 µg/mL
NCCCOc1c(Br)cc(C/C(=N\O)C(=O)NCCc2cnc(N)[nH]2)cc1Br |  | EC50 |  |  |  | 30 µM
Cc1ccc(-c2nc(N3CCN(C)CC3)[nH]c(=O)c2C#N)cc1 |  | MIC |  |  | H37Ra | >50 µg/mL
CC(=O)Oc1ccc(Oc2c(-c3ccc4ccccc4c3)nc3ccc(Cl)cc3c2-c2ccccc2)cc1 |  | MIC | agar |  | H37Rv | 50 µM
CCN1CCN(c2cc(-c3ccccc3)c3ccc(N)nc3n2)CC1 |  | MIC |  |  | H37Rv | >6.25 µg/mL
COc1ccccc1/C=N/N=C(\N)c1ccncc1 |  | MIC |  |  | 1054 | 32 µg/mL
CC(=O)O[C@H]1CC(=O)OC(C)(C)[C@@H]2CC(=O)[C@]3(C)[C@H](CC[C@@]4(C)[C@H](c5ccoc5)OC(=O)[C@H]5O[C@]543)[C@@]12C |  | inhibition | BACTEC | 12.5 µg/mL | H37Rv | -19%
CN(C)CC(=O)Nc1cc(N(C)C)c2c(c1O)C(O)=C1C(=O)[C@]3(O)C(O)=C(C(N)=O)C(=O)[C@@H](N(C)C)[C@@H]3C[C@@H]1C2 |  | MIC |  |  | 2 strains | >32 µg/mL
NC(=O)c1cnc(C(=O)c2ccccc2O)cn1 |  | EC50 | resazurin |  | H37Rv | >6.25 µg/mL
O=C(C(O)CO)N1CC=C(c2c(F)cc(N3CC(COc4ccon4)OC3=O)cc2F)CC1 |  | MIC | resazurin |  | ss18b | 0.4 µg/mL
CCN(CC)CCNc1ccc(O)c2sc3ccccc3c(=O)c12 |  | MIC bound | BACTEC |  | H37Rv | >12.5 µg/mL
CC(C)=CCC[C@H](C)[C@H]1CC[C@H](C)c2cc(O)ccc21 |  | MIC |  |  |  | 6.25 µg/mL
Cc1ccc(-c2cc3cnccc3[nH]c2=O)cc1 |  | EC50 |  |  | H37Rv | 17 µM
S=C([S-])NC1CCCCC1.[Na+] |  | MIC | BACTEC |  | H37Rv | ≥12.5 µg/mL
N#Cc1cnc(C(=O)c2ccccc2O)cn1 |  | inhibition | resazurin | 6.25 µg/mL | H37Rv | 5%
NC(N)=Nc1nc2ccc([N+](=O)[O-])cc2[nH]1 |  | MIC bound | resazurin |  | H37Rv | >6.25 µg/mL
CCC(C)C(=O)N[C@H](Cc1ccccc1)C(=O)N[C@H]1C(=O)N[C@H](CC(C)C)C(=O)N[C@H](Cc2ccccc2)C(=O)N[C@@H](CC(C)C)C(=O)N[C@H]([C@@H](C)O)C(=O)N[C@@H](CO)C(=O)O[C@H]1C |  | MIC |  |  |  | 12 µg/mL
CCCc1cc(=O)oc2c3c(c4c(c12)OC(C)(C)C=C4)O[C@@H](C)[C@H](C)[C@@H]3O |  | MIC bound | BACTEC |  | H37Rv | ≤12.5 µg/mL
Cc1cc(Nc2ccc(Cl)c(Cl)c2)nc(N)n1 |  | EC50 |  |  | H37Rv | 15 µM
N/C(=N\N=C\c1ccc(Br)cc1)c1ccncc1 |  | MIC |  |  | 1054 | 64 µg/mL
C=C(C)[C@H]1[C@@H]2C[C@H](C)[C@H]3CC[C@H](C)[C@H]4C(=O)[C@]1(O)[C@@](C)(O)C(=O)[C@]342 |  | MIC |  |  |  | 6.25 µg/mL
COc1cc(C2C(C(=O)Nc3ccc(Cl)cc3)=C(C)NC(C)=C2C(=O)Nc2ccc(Cl)cc2)cc(OC)c1OC |  | inhibition |  | 2.5 µg/mL | H37Rv | 94%
NNC(=O)c1ccncc1 | 21 d | MIC |  |  | 331/88 | 1 µM
Fc1ccc(-c2nc3ccc(Cl)cn3c2NCC2CCCO2)cc1 |  | EC50 |  |  | H37Rv | 13 µM
O=C1CC(c2ccc(O)cc2)Oc2cc(O)c(Oc3ccc(-c4cc(=O)c5c(O)cc(O)cc5o4)cc3)c(O)c21 |  | inhibition |  | 12.5 µg/mL |  | 0%
COc1ccc(OC)c(/C=N/N=C(\N)c2ccncc2)c1 |  | MIC |  |  | 1481 | 128 µg/mL
CCCC[N+]12CC=C3COC(=O)C(C)(O)C(C)(O)C(C)C(=O)OC(CC1)C32.[Br-] |  | MIC | BACTEC |  | H37Rv | ≥12.5 µg/mL
Fc1ccc(ON2N=C(c3ccccc3)C(n3ccnc3)C2c2ccccc2)cc1 |  | MIC |  |  | H37Rv | 8 µg/mL
CSc1nc(C#N)c(N)n1C |  | MIC bound | BACTEC |  | H37Rv | >12.5 µg/mL
c1ccc(-c2cc3ccc(N4CCCCC4)nc3nc2N2CCNCC2)cc1 |  | MIC |  |  | H37Rv | >6.25 µg/mL
CCCCCCCCCCCCCCCCCCCCOP(=O)(O)C[C@@H]1O[C@H](CO)[C@@H](O)[C@@H]1O |  | MIC |  |  | H37Rv | 18 µM
c1ccc(-c2cc3ccc(N4CCNCC4)nc3nc2N2CCNCC2)cc1 |  | inhibition |  | 6.25 µg/mL | H37Rv | 73%
COC(=O)[C@@H]1CC(O)CN1C(=O)c1c2nc3c(C(=O)N4CC(O)C[C@H]4C(=O)OC)ccc(C)c3oc-2c(C)c(=O)c1N |  | MIC bound | BACTEC |  | H37Rv | >12.5 µg/mL
CC[C@@H](CO)NCCN[C@@H](CC)CO |  | MIC | agar |  | H37Rv | 0.15 µM
Nc1nc2c(C(=O)c3ccco3)nnn2c2cccc(Cl)c12 |  | MIC bound | BACTEC |  | H37Rv | >12.5 µg/mL
COC(=O)C(Cc1ccccc1)NC(=O)C1N2C(=O)C(N)C2SC1(C)C | 21 d | EC99 | colony count |  | Gordon | 100 µg/mL
COc1cc(/C=N/N=C(\N)c2ccncc2)cc(OC)c1OC |  | MIC |  |  | 1342 | >256 µg/mL
O[C@]12CCCCCC[C@@H]3CCN4CCC[C@](O)(CCCCCC[C@@H]5CCN(CCC1)[C@H]2O5)[C@@H]4O3 |  | MIC |  |  |  | 3.94 µg/mL